{"source": "paper PMC9579337", "key": {"[1]": {"molecular_target": "TSG-6 (tumor necrosis factor alpha stimulated gene/protein 6), recombinant human, Trp18-Leu277, C-terminal 10-His tag (human) (UniProt P98066)"}, "[2]": {"molecular_target": "TSG-6 (tumor necrosis factor alpha stimulated gene/protein 6), recombinant human, Trp18-Leu277, C-terminal 10-His tag (human) (UniProt P98066)", "test": "AlphaScreen or HTRF; competition: end-biotinylated 50 kDa HA (0.2 nM final), His-TSG-6 (14 nM final) and increasing unlabelled PRG4 premixed 2 h at room temperature in PBS-T, then nickel chelate acceptor beads and streptavidin donor beads; the signal reports HA-TSG-6 binding"}}}
{"substance": "Full length recombinant human Proteoglycan 4 (PRG4, lubricin) (from UniProt Q92954 25-1404) (natural protein)", "values": [{"measurement": "PRG4 concentration that halves the AlphaLISA signal of TSG-6-mediated HA crosslinking (1 nM bHA, 150 nM TSG-6)", "setting": "[1]", "result": 1, "unit": "nM"}, {"measurement": "IC50", "setting": "[2]", "result": "5 to 10", "unit": "nM"}]}
